Results of unrelated studies side by side (data: NIAID ChemDB).

Shared fields: tests in culture; agent: HIV-1; read-out: inhibition

An empty or dashed field is not shown.

SMILES	read by	cell line	strain	tested at	value
O=S(=O)(O)c1c2ccccc2c(-c2c3nc(c(-c4c5ccccc5c(S(=O)(=O)O)c5ccccc45)c4ccc([nH]4)c(-c4c5ccccc5c(S(=O)(=O)O)c5ccccc45)c4nc(c(-c5c6ccccc6c(S(=O)(=O)O)c6ccccc56)c5ccc2[nH]5)C=C4)C=C3)c2ccccc12	β-galactosidase	MAGI	IIIB	5 µg/mL	70%
CCCCC(=O)OC[C@H]1O[C@@H](n2cnc3c(N)ncnc32)[C@@H]1CO	antigen	MT-4		100 µg/mL	99.9%
C=C(C)[C@@H]1CC[C@]2(C(=O)NCCCCCCCC(=O)N[C@@H](CC(C)C)[C@@H](O)CC(=O)O)CC[C@]3(C)[C@H](CC[C@@H]4[C@@]5(C)CC[C@H](O)C(C)(C)[C@@H]5CC[C@]43C)[C@@H]12	β-galactosidase	HeLa P4 + HeLa	LAI	10 µM	>99%
N[C@H]1CONC1=O	antigen	CEM	N1T	5 µg/mL	88%
CC(C)[C@H](NC(=O)[C@H](CO)NC(=O)[C@H](CS)NC(=O)CCC(=O)NCCCOCCOCCCN)C(=O)N[C@H](C(=O)N[C@@H](CS)C(=O)NCC(=O)O)[C@@H](C)O	p24	PBMC(PHA STIM.) + PBMC	IIIB	1.32 µM	100%
O=c1[nH]cnc2c1ncn2[C@H]1C[C@@H](CO)O1	antigen	MT-4		100 µg/mL	>99.9%
O=c1c(-c2nnc(-c3ccc(F)cc3)s2)cnc2ccccn12	single cycle	HeLa	NL4-3	100 µM	48%
C[C@H]1O[C@H](O[C@@]23C(=O)[C@@H](O)[C@](C)(O)C[C@]2(O)C=CC2=C3C(=O)c3cccc(O)c3C2=O)CC[C@H]1O	plaque count	MT-4	LAV	0.1 µg/mL	20%
CCCCCCCCCCCCC/C=C/[C@@H](O)C(CO)NC(=O)CCCCCCCCC(=O)Nc1ccc2[nH]c(C(=O)N3CCN(c4ncccc4NC(C)C)CC3)cc2c1	p24	H9	IIIB	0.1 µM	66%
Nc1ccn([C@@H]2C=C(F)[C@H](CO)O2)c(=O)n1	PCR	PBMC	BRU-184V	68.4 µM	90%
COC(=O)c1cccc2c(C(=O)C(=O)N3CCN(C(=O)c4ccccc4)CC3C(C)(C)C)c[nH]c12	luciferase	HeLa + HELA CD4+/CCR5		10 µM	63%
O=c1ccn([C@H]2CC=C[C@@H](CO)O2)c(=O)[nH]1	ELISA	MT-4	IIIB	100 µM	0%
CSc1ccc(S)c(C(=O)N2CCN(C(=O)C(=O)c3c[nH]c4cccc(F)c34)CC2)c1	luciferase	HeLa + HELA CD4+/CCR5		10 µM	75%
C=C(C)C12OCOC1C1C3OC3(CO)C(O)C3(O)C(=O)C(C)=CC3C1(O/C=C/C=C/CCC)C(C)C2OC(=O)c1ccccc1	fluorescence	PBMC		0.09 µM	90%
Cc1cn([C@H]2C=CC[C@@H](CO)O2)c(=O)[nH]c1=O	ELISA	MT-4	IIIB	100 µM	0%
CC(C)Nc1cccnc1N1CCN(C(=O)c2cc3ccccc3[nH]2)CC1	p24	H9	IIIB	0.1 µM	64%
CC[C@H](CO)Nc1nc(NCc2ccc(-c3ccccc3)cc2)n2ncc(C(C)C)c2n1	trypan blue	U1		0.05 µM	1–5%
CN(C(=O)Cc1sccc1F)c1nc2c(s1)CCCC2	luciferase	TZM-bl	NL4-3	10 µM	94%
C[C@@H]1CN(C(=O)c2ccccc2)CCN1C(=O)C(=O)c1c[nH]c2nc(-c3ccccc3)ccc12	luciferase	HeLa		10 µM	85%
CC1CN(C(=O)C(=O)c2c[nH]c3cccc(F)c23)CC(C)N1C(=O)c1ccccc1	luciferase	HeLa + HELA CD4+/CCR5		10 µM	97%
O=P(O)(O)OP(=O)(O)OP(=O)(O)OP(=O)(O)O	cytopathic effect / MTT	CEM	IIIB	100 µg/mL	37%
O=c1[nH]cnc2c1ncn2[C@@H]1O[C@H](CO)[C@H]1COS(=O)(=O)O	antigen	MT-4		3 µg/mL	40%
CC(C)C[C@H](NC(=O)c1ccc(NC(=O)[C@H](Cc2c[nH]c3ccccc23)NC(=O)CCC(=O)NCCCCCCCCCCOCCNC(=O)CCC(=O)O)c(OCCc2c[nH]c3ccccc23)c1)C(=O)O	luciferase / cell fusion	TZM-bl	NL4-3	50 µM	7%
Cc1cn([C@H]2C[C@H](O)[C@@H](C[N+](C)(C)CCCO)O2)c(=O)[nH]c1=O	plaque count / syncytia	CEM + CEM-SS	IIIB	100 µM	31%
Cc1cn([C@@H]2C=CC[C@@H](CO)O2)c(=O)[nH]c1=O	ELISA	MT-4	IIIB	100 µM	0%
Cc1ccc(-c2nnc(-c3cnc4ccccn4c3=O)s2)cc1	single cycle	HeLa	NL4-3	100 µM	51%
O=C(C(=O)N1CCN(C(=O)c2ccccc2)CC1)c1c[nH]c2cc(Cl)c(Cl)cc12	luciferase	HeLa + HELA CD4+/CCR5		10 µM	>98%
NCCSSCCN	p24	PBL	IIIB	100 µM	60%
CCCCCCCCCCCCC/C=C/[C@@H](O)[C@H](CO)NC(=O)CCCCCOc1ccc2[nH]c(C(=O)N3CCN(c4ncccc4NC(C)C)CC3)cc2c1	p24	H9	IIIB	0.1 µM	44%
Nc1ncnc2c1ncn2[C@@H]1O[C@H](CO)[C@H]1F	antigen	MT-4		10 µg/mL	50%
C[C@H](CCC(=O)NCCCCN(CCCNC(=O)CC[C@@H](C)[C@H]1CC[C@H]2[C@@H]3[C@H](OS(=O)(=O)O)C[C@@H]4C[C@H](OS(=O)(=O)O)CC[C@]4(C)[C@H]3C[C@H](OS(=O)(=O)O)[C@]12C)C(=O)CC[C@@H](C)[C@H]1CC[C@H]2[C@@H]3[C@H](OS(=O)(=O)O)C[C@@H]4C[C@H](OS(=O)(=O)O)CC[C@]4(C)[C@H]3C[C@H](OS(=O)(=O)O)[C@]12C)[C@H]1CC[C@H]2[C@@H]3[C@H](OS(=O)(=O)O)C[C@@H]4C[C@H](OS(=O)(=O)O)CC[C@]4(C)[C@H]3C[C@H](OS(=O)(=O)O)[C@]12C	luciferase	U87-CD4-CCR5 + U87	Pseudotyped recombinant replication-defective	100 µg/mL	85%
CC(C)[C@H](NC(=O)[C@H](CO)NC(=O)[C@@H](N)CSSCC(=O)O)C(=O)N[C@H](C(=O)N[C@@H](CSSCC(=O)O)C(=O)NCC(=O)O)[C@@H](C)O	p24	PBMC(PHA STIM.) + PBMC	IIIB	0.66 µM	58%
CC[C@@H]1C=CC[C@H](n2cnc3c(N)ncnc32)O1	ELISA	MT-4	IIIB	100 µM	0%
O=C(C(=O)N1CCN(C(=O)c2ccccc2S)CC1)c1c[nH]c2cccc(F)c12	luciferase	HeLa + HELA CD4+/CCR5		10 µM	>98%
Cc1ccc(-c2nnc(-c3cnc4ccccn4c3=O)o2)cc1	single cycle	HeLa	NL4-3	100 µM	29%

The first 2 rows once more:

SMILES | read by | cell line | strain | tested at | value
O=S(=O)(O)c1c2ccccc2c(-c2c3nc(c(-c4c5ccccc5c(S(=O)(=O)O)c5ccccc45)c4ccc([nH]4)c(-c4c5ccccc5c(S(=O)(=O)O)c5ccccc45)c4nc(c(-c5c6ccccc6c(S(=O)(=O)O)c6ccccc56)c5ccc2[nH]5)C=C4)C=C3)c2ccccc12 | β-galactosidase | MAGI | IIIB | 5 µg/mL | 70%
CCCCC(=O)OC[C@H]1O[C@@H](n2cnc3c(N)ncnc32)[C@@H]1CO | antigen | MT-4 |  | 100 µg/mL | 99.9%

Neighbouring rows are from separate reports. Inhibition is in % at the dose shown (toxicity tests: loss of growth or viability). Two numbers with a dash give a range or band.